Measured values from several laboratories, pooled; numbers as filed in NIAID ChemDB.

All rows: cytotoxicity tests; cell line: MCF-7; read by: MTT; read-out: CC50

CCn: concentration that lowers growth or viability of the cells by n%.

smiles	value
CC(=NNC(=O)c1snnc1C(F)(F)F)c1ccccn1	6.01 µg/mL
CC(C)c1nc(C(=O)NCc2ccc(F)cc2)c(O)c(=O)n1C	>20 µM
O=C1CCn2c(nc3c(c2=S)C2=C(CCC/C2=C\c2ccncc2)C(c2ccncc2)S3)S1	41.1 µM
C/C(=N\NC(=O)c1ccc([N+](=O)[O-])cc1)c1cccc(/C(C)=N/NC(=O)c2ccc([N+](=O)[O-])cc2)n1	>100 µM
Cc1ccc(/C=c2\c(=O)sc3nc4c(c(=S)n23)C2=C(CCC/C2=C\c2ccncc2)C(c2ccncc2)S4)cc1	36.5 µM
COc1cc2c(c(OC)c1O)-c1c(cc3c(c1OC)OCO3)C[C@H](C)[C@H](C)[C@@H]2O	5.6 µg/mL
O=C1Sc2nc3c(c(=S)n2C/C1=C/c1ccc(Cl)cc1)C1=C(CCC/C1=C\c1ccncc1)C(c1ccncc1)S3	18.6 µM
Cc1cnc(Cl)c(/C=C/C(=O)c2ccccc2)c1	14 µM
Nc1c(C(=O)c2ccccc2)[nH]c2c1C1=C(CCC/C1=C\c1ccncc1)C(c1ccncc1)S2	>50 µM
C[C@H](O)Cc1cc2c(O[C@H]3O[C@H](CO)[C@@H](O)[C@H]3O)ccc(O)c2c(=O)o1	>40 µg/mL
O=C1NC(=Nc2ccc(F)c(Cl)c2)S/C1=C\c1ccc(-c2ccc(C(=O)O)c(O)c2)o1	13 µM
CCOC(=O)/C=C/c1cc(CC)cnc1Cl	9 µM
C/C(=C/CC[C@@H](C)C(=O)C1C[C@@]2(C)[C@@H]3CC[C@H]4C(C)(C)C(=O)CC[C@]4(C)C3=C[C@@]2(O)[C@]1(C)O)C(=O)O	>40 µg/mL
Nc1c2c(nc(=S)n1-c1ccccc1)SC(c1ccncc1)C1=C2/C(=C/c2ccncc2)CCC1	14.6 µM
CCOC(=O)/C(=C\c1cc(-c2ccccc2)cnc1Cl)C(=O)c1ccccc1	106 µM
CC(C)c1nc(C(=O)NCc2ccc(F)cc2)c([O-])c(=O)n1C.Cc1ccc(C(C)C)cc1.[Cl][Ru+]	>20 µM
Cc1nc2c(c(=N)n1Nc1ccccc1)C1=C(CCC/C1=C\c1ccncc1)C(c1ccncc1)S2	12.4 µM
CCc1ccc(CCN=C2NC(=O)/C(=C/c3ccc(-c4ccc(C(=O)O)c(O)c4)o3)S2)cc1	4.5 µM
CCCc1cnc(Cl)c(/C=C/C(=O)OCC)c1	9 µM
CC(=O)O[C@H]1C=C2[C@@H](CC[C@H](OC(C)=O)C2(C)C)[C@]2(C)CC[C@]3(C)[C@@H]([C@H](C)C[C@H](C=C(C)C)OC(C)=O)CC[C@@]3(C)[C@H]12	>133.3 µM
COc1cc2c(c(O)c1OC)-c1c(cc(OC(C)=O)c(OC)c1O)C[C@@H](C)[C@@H](C)C2	>10 µg/mL

Rows are shuffled and stem from different studies.